Where two headings read alike, the source gives them in different places.
How the values were obtained:
[1] = system: FLUVIRAL®-specific antibodies; settings: oral FLUVIRAL® 50 μl days 0, 7, 14 with 10 μg ODN, vs no adjuvant; plasma 1 week after final immunization (FIG. 4a)
[2] = system: TT-specific antibodies (anti-TT); settings: TT 10 μg days 0, 7, 14, no adjuvant, ODN 100 μg or CT 10 μg

Substance	augmentation of mean FLUVIRAL®-specific IgG titers in plasma [1]	mice responding (anti-TT IgG in plasma>100) ([2]; IN route, plasma 1 week after final immunization (FIG. 8b))	mice responding (anti-TT IgG in plasma>100) ([2]; IR route, plasma 1 week after final immunization (FIG. 8a))	mice responding (anti-TT IgG in plasma>100) ([2]; oral delivery, plasma 1 week after final immunization (FIG. 8c))
5′-TCCATGAGCTTCCTGAGCTT-3′	approximately 5 fold			
Cholera toxin		5/5	5/5	5/5

— US20010044416A1 (priority 2000, published 2001)
